Values from PubChem BioAssay AID504761 (Drosophila RNAi Screening Center, 2011)
The deposit covers about 22,000 reagents; below is a random part of those that have a named target and a result. Over the whole deposit, 116 (0.52%) are marked active. 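Calls depend on retest data that are not deposited; infection was ranked per plate without normalising between plates; the unit of the infection score is not given.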 The raw values are shown without normalisation. Names joined by + are all predicted targets of the reagent. The record does not give: the amount of reagent, the time to read-out.

Assay: 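Genome-wide fly cell screen for genes dengue virus requires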 (primary screen)
System: D.Mel-2 cells from Drosophila
Knock-down reagent: long dsRNA against Drosophila genes
Conditions: infection with dengue virus type 2; dose and infection time not stated
Detection: 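Per well on two replicate plates, imaging gave the percent of cells positive for viral envelope protein, ranked by infection, and a nuclear count of cells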
Reading the numbers: infection score: higher = more virus-infected cells; cell count: higher = more cells in the well
Active means: 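Low infection ranks in the two replicates (chance level up to 0.065) followed by a retest with a 1.5-fold or larger significant decrease, p below 0.05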
Meaning of the calls: active = confirmed: knock-down lowers infection; inactive = not picked or not confirmed

Target gene,DRSC id,"infection score, replicate 1","infection score, replicate 2","cell count, replicate 1","cell count, replicate 2",Call
eag (ether a go-go),DRSC19067,0.83,0.5,6300,6387,inactive
eag (ether a go-go),DRSC20328,2.76,1.99,6593,6881,inactive
eag (ether a go-go),DRSC28295,0.21,1.29,469,1553,inactive
Cbp80 (cap binding protein 80),DRSC18450,,28.2,46,2224,inactive
Cpr49Ag (Cuticular protein 49Ag),DRSC07203,6.6,16.3,6474,5904,inactive
Cpr49Ag (Cuticular protein 49Ag),DRSC28612,12.5,0.89,2261,448,inactive
CSN1b (COP9 signalosome subunit 1b),DRSC11108,16.5,19.6,4726,3939,inactive
Dhc93AB (Dynein heavy chain at 93AB),DRSC16644,5,4.33,2599,6679,inactive
Dhc93AB (Dynein heavy chain at 93AB),DRSC28116,26.4,6.49,5114,5843,inactive

Entries listed so far whose gene name begins with D or d (2):
Target gene,DRSC id,"infection score, replicate 1","infection score, replicate 2","cell count, replicate 1","cell count, replicate 2",Call
Dhc93AB (Dynein heavy chain at 93AB),DRSC16644,5,4.33,2599,6679,inactive
Dhc93AB (Dynein heavy chain at 93AB),DRSC28116,26.4,6.49,5114,5843,inactive

Continued:
Target gene,DRSC id,"infection score, replicate 1","infection score, replicate 2","cell count, replicate 1","cell count, replicate 2",Call
Irc (Immune-regulated catalase),DRSC16454,9.18,7.43,6048,6583,inactive
Irc (Immune-regulated catalase),DRSC28100,14.7,4.47,6006,6598,inactive
egg (eggless),DRSC04119,3.26,8.73,6297,3872,inactive
egg (eggless),DRSC22534,2.98,5.16,6746,6255,inactive
egg (eggless),DRSC28455,16.1,,5513,359,inactive
Inx7 (Innexin 7),DRSC18784,0.95,1.14,6753,6771,inactive
Inx7 (Innexin 7),DRSC24113,2.14,2.53,6624,6920,inactive
Prp31 (Pre-mRNA processing factor 31),DRSC10735,,,119,514,inactive
js (jiangshi),DRSC15004,1.09,1.44,6600,6114,inactive
Hacd1 (3-hydroxyacyl-CoA dehydratase 1),DRSC02988,11.2,4.95,6315,6197,inactive
Mrgn1 (Mahogunin ring finger 1),DRSC20223,5.93,15.4,7017,7098,inactive
CG5880,DRSC15906,10.1,2.88,6422,6325,inactive
side-IV (sidestep IV),DRSC14833,3.03,16.9,6206,4737,inactive
CG9410 + CG15908,DRSC04976,8.12,6.07,6932,6297,inactive
CG9410 + CG15908,DRSC05001,7.94,23.8,6689,5560,inactive
CG9410 + CG15908,DRSC25956,2.05,1.22,6191,6531,inactive
